Anti-infective test results gathered from many reports (values: NIAID ChemDB through PubChem).

Shared fields: growth or infection tests; organism: Herpes simplex virus 1; measure: EC50

ECn is the concentration giving n% inhibition of infection, replication or growth. Rows are shuffled and stem from different studies. Blank or dashed fields: not listed here.

smiles,strain,setting,method,cells,value
CC(=O)O[C@H]1C[C@H](n2cc(C)c(=O)[nH]c2=O)O[C@@H]1COS(=O)(=O)NC(=O)O[C@H]1O[C@H](COC(=O)c2ccccc2)[C@@H](OC(=O)c2ccccc2)[C@H](OC(=O)c2ccccc2)[C@H]1OC(=O)c1ccccc1,-,-,cytopathic effect,-,70 µM
O=C1CCC(c2ccccc2)C(=O)N1CCCN1CCN(c2ncccn2)CC1,-,-,MTT,VERO 76,>98 µM
O=c1[nH]c(=S)n([C@H]2C[C@H](O)[C@@H](CO)O2)cc1I,KOS,-,plaque count,RPMI8226,1.06 µM
CC1=C(C)C(CO)(CO)C[C@H]1n1cnc2c(N)ncnc21,-,-,cytopathic effect,VERO,>100 µg/mL
C=C(/C=C/P(=O)(O)O)CCn1cnc2c(=O)[nH]c(N)nc21,HF,-,cytopathic effect,VERO,>125 µM
O=C(NS(=O)(=O)OC[C@H]1O[C@@H](n2ccc(=O)[nH]c2=O)[C@H](O)[C@@H]1O)O[C@H]1O[C@H](COC(=O)c2ccccc2)[C@@H](OC(=O)c2ccccc2)[C@H](OC(=O)c2ccccc2)[C@H]1OC(=O)c1ccccc1,-,-,cytopathic effect,-,30 µM
CC/C=C\C/C=C\C/C=C\C/C=C\C/C=C\CCCC(=O)OC(CO[C@H]1O[C@H](CS(=O)(=O)O)[C@@H](O)[C@H](O)[C@H]1O)OC(=O)CCCCCCCCCCCCCCC,-,-,plaque count,VERO,9.1 µg/mL
NC(=S)N/N=C(\c1ccccn1)C12CC3CC(CC(C3)C1)C2,TK-,-,cytopathic effect,E6SM,>400 µg/mL
Nc1nc(=O)n([C@H]2O[C@@H](CO)C[C@H]2F)cc1Br,-,-,-,VERO,>100 µM
O=C1CCC(c2ccccc2)C(=O)N1CCCCN1CCN(c2ccccn2)CC1,-,-,MTT,VERO 76,>98 µM
Nc1nc(=O)n([C@@H]2O[C@H](CO)[C@@H](O)[C@@H]2F)cc1I,KOS PFA-resistant,-,cytopathic effect,HEL,0.04 µg/mL
CCCCCCCCCCCCCCCCCCCCCCSC[C@H](O)COP(=O)(O)C(=O)O,-,-,-,MRC-5,15 µM
[Cl][Sn]([c]1ccccc1)([c]1ccccc1)[c]1ccccc1,F,-,plaque count,HFF,<0.5 µg/mL
O=C(O)C[C@H]1C(=O)O[C@H]2[C@H](OC(=O)c3cc(O)c(O)c(O)c3)[C@@H](OC(=O)c3cc(O)c(O)c4c3[C@H]1[C@H](O)C(=O)O4)[C@H](OC(=O)c1cc(O)c(O)c(O)c1)O[C@@H]2COC(=O)c1cc(O)c(O)c(O)c1,-,-,plaque count,A549,20.85 µM
CCCCCCC[CH2][Sn]([Cl])([Cl])[CH2]CCCCCCC,F,-,plaque count,HFF,48 µg/mL
OC[C@H]1O[C@@H](n2cnc3cc(Cl)c(Cl)cc32)[C@H](O)[C@H]1O,KOS,-,cytopathic effect,E6SM,>4 µg/mL
O=C(O)P(=O)(O)O,KOS PMEDAP-resistant,-,cytopathic effect,HEL,106.3 µg/mL
O=C(O)CP(=O)(O)O,PCV-resistant/A,-,cytopathic effect,HEL,12 µg/mL
CCc1cn([C@H]2C[C@H](O)[C@@H](CO)S2)c(=O)[nH]c1=O,L2/R acyclovir-resistant,-,cytopathic effect,VERO,4.7 µM
O=C1O[C@@H]2[C@@H](OC(=O)c3cc(O)c(O)c(O)c3-c3c1cc(O)c(O)c3O)[C@@H](O)O[C@@H]1COC(=O)c3cc(O)c(O)c(O)c3-c3c(O)c(O)c4oc(=O)c5c(c(O)c(O)c6oc(=O)c3c4c65)-c3c(cc(O)c(O)c3O)C(=O)O[C@@H]21,-,-,plaque count,A549,10.25 µM
Nc1nc2c(ncn2COC(CO)CO)c(=O)[nH]1,PCV-resistant/A,-,cytopathic effect,HEL,1.75 µg/mL
O=C(O)C(Br)P(=O)(O)O,F,-,plaque count,-,280 µM
O=c1[nH]c(=S)n([C@@H]2O[C@H](CO)[C@@H](O)[C@@H]2O)cc1Cl,KOS,-,plaque count,MRC-5,24.5 µM
COC(=O)[C@]1(C)CCC[C@@]2(C)[C@H]1[C@H](O)CC1CC(=O)[C@]3(C)CC[C@]12C3,F,-,plaque count,HeLa,34.5 µM
O=c1[nH]c(=O)n([C@H]2C[C@H](O)[C@@H](CO)O2)cc1/C=C/Br,KOS PFA-resistant,-,cytopathic effect,HEL,0.004 µg/mL
CCCCCCCCCCCCSC[C@H](O)COP(=O)(O)C(=O)O,-,-,-,MRC-5,41 µM
CCC[CH2][Sn]([Cl])([CH2]CCC)[CH2]CCC,F,-,plaque count,HFF,<1 µg/mL
Nc1ncnc2c1ncn2C[C@@H](CO)OCP(=O)(O)O,C137-101 (TK-),-,cytopathic effect,-,1 µg/mL
O[C@@H]1CC(n2cnc3cc(Cl)c(Cl)cc32)OC[C@@H]1O,KOS,-,cytopathic effect,E6SM,>100 µg/mL
Oc1cc(O)c2c(c1)O[C@H](c1ccc(O)c(O)c1)[C@H](O)C2,-,-,-,VERO,>200 µM
COC(=O)[C@]1(C)CCC[C@@]2(C)[C@H]1C(=O)CC1CC(=O)[C@]3(C)CC[C@]12C3,F,-,plaque count,HeLa,27.7 µM
O=C(O)P(=O)(O)O,-,-,-,MRC-5,41.2 µM
O=C(O)C(F)P(=O)(O)O,F,-,plaque count,-,130 µM
C[C@@]12CC[C@]3(C1)C(C[C@@H](O)[C@H]1[C@](C)(CO)CCC[C@@]13C)C[C@H]2O,F,-,plaque count,HeLa,74 µM
Nc1nc2c(ncn2COC(CO)CO)c(=O)[nH]1,KOS PMEDAP-resistant,-,cytopathic effect,HEL,0.003 µg/mL
O=C1CCC(c2ccccc2)C(=O)N1CCCCN1CCN(c2ccc(F)cc2)CC1,-,-,MTT,VERO 76,31 µM
C1C2C3CC4C1C1C2NC3C41,-,-,plaque count,BHK-21,>25 µg/mL
NC(=O)c1nc(F)c[nH]c1=O,-,-,plaque count,VERO,>100 µg/mL
Cc1cn([C@@H]2O[C@H](CO)[C@@H](O)[C@@H]2O)c(=S)[nH]c1=O,KOS,-,plaque count,MRC-5,109 µM
C[C@@]12CC[C@]3(C1)C(C[C@@H](O)[C@H]1[C@](C)(CO)CCC[C@@]13C)C[C@@H]2O,F,-,plaque count,HeLa,65 µM
O=C(NCCc1c[nH]c2ccccc12)C1=Cc2ccncc2CC1,McKrae,-,plaque count,HFF,2.3 µM
COc1cc(NC(=O)Nc2cccc(CNC(=O)O[C@H]3CCOC3)c2)ccc1-c1cnco1,E-377,6 d,plaque count,VERO,6.3 µM
O=C(O)P(=O)(O)O,ACV-resistant,-,cytopathic effect,HEL,30 µg/mL
C[C@H](Cn1cnc2c(NC3CC3)ncnc21)OCP(=O)(O)O,-,-,-,-,0.2 µg/mL
C[C@@]12CC[C@]3(C1)C(CC2=O)C[C@@H](OC(=O)c1ccccc1)[C@H]1[C@](C)(C(=O)O)CCC[C@@]13C,F,-,plaque count,HeLa,0.039 µM
C[CH2][Sn]([Cl])([Cl])[CH2]C,F,-,plaque count,HFF,3.1 µg/mL
O=C(O)CP(=O)(O)O,KOS S2242-resistant,-,cytopathic effect,HEL,81.7 µg/mL
Cc1cn([C@H]2O[C@@H](CO)C[C@H]2F)c(=O)[nH]c1=O,-,-,-,VERO,>100 µM
COC(=O)[C@]1(C)CCC[C@@]2(C)[C@H]1[C@H](OC(=O)c1ccccc1)CC1CC(=O)[C@]3(C)CC[C@]12C3,F,-,plaque count,HeLa,6.7 µM
Nc1nc2c(ncn2[C@H]2O[C@@H](CO)C[C@H]2F)c(=O)[nH]1,-,-,-,VERO,>100 µM
CC1=C(C)C(CO)(CO)C[C@H]1n1ccc(N)nc1=O,-,-,cytopathic effect,VERO,>100 µg/mL
OC[C@H]1O[C@@H](n2cnc3cc(Cl)c(Cl)cc32)[C@@H](O)[C@H]1O,KOS,-,cytopathic effect,E6SM,>40 µg/mL
Nc1ncnc2c1ncn2[C@@H]1O[C@H](C#CBr)[C@@H](O)[C@H]1O,VMW1837 (TK-),-,cytopathic effect,E6SM,6 µM
C[CH2][Sn]([Cl])([Cl])[CH2]C.c1ccc(-c2nc3ccccc3[nH]2)nc1,F,-,plaque count,HFF,8.1 µg/mL
Cc1cn([C@H]2C[C@H](O)[C@@H](CO)O2)c(=O)[nH]c1=O,TK-,-,plaque count,MRC-5,>413 µM
Nc1ncnc2c1ncn2[C@@H]1C[C@@H](O)[C@H](CO)O1,-,-,-,HFF,>100 µM
OC[C@H]1O[C@@H](n2c(Cl)nc3cc(Cl)c(Cl)cc32)[C@@H](F)[C@@H]1O,-,-,-,-,50 µM
Nc1ccn(C[C@@H](CO)OCP(=O)(O)O)c(=O)n1,KOS,-,cytopathic effect,U373-MG,8.75 µg/mL
C[C@H](NP(=O)(N[C@@H](C)C(=O)OC(C)(C)C)OC[C@H]1O[C@@H](n2cnc(C(N)=O)c2N)[C@H](O)[C@@H]1O)C(=O)OC(C)(C)C,KOS,-,cytopathic effect,HEL,>100 µM
N#Cc1cn([C@@H]2O[C@H](CO)[C@@H](O)[C@@H]2O)c2ncnc(N)c12,S-148,-,virus yield,BSC-1,<3.5 µM
Nc1nc(=S)n([C@H]2C[C@H](O)[C@@H](CO)O2)cc1I,KOS,-,plaque count,RPMI8226,22.8 µM
Nc1ncnc2c1ncn2[C@@H]1O[C@H](C#CCl)[C@@H](O)[C@H]1O,VMW1837 (TK-),-,cytopathic effect,E6SM,140 µM
Nc1nc(=O)n([C@H]2O[C@@H](CO)C[C@H]2F)cc1I,-,-,-,VERO,>100 µM
COC(=O)[C@H](C)NP(=O)(OC[C@@H]1C[C@]12C[C@@H]2n1cnc2c(N)ncnc21)Oc1ccccc1,-,-,plaque count,HFF,6.1 µM
O=c1ccn([C@H]2C[C@H](O)[C@@H](CO)O2)c(=S)[nH]1,TK-,-,plaque count,MRC-5,>412 µM
CCCCCCCCCCCCCCCCCCSC[C@H](O)COP(=O)(O)C(=O)O,-,-,-,MRC-5,5 µM
C[CH2][Sn]([Cl])([Cl])[CH2]C.c1cnc2c(c1)ccc1cccnc12,F,-,plaque count,HFF,7.6 µg/mL
COc1cc(O)c2c(=O)c3cccc(O)c3n(C)c2c1OC,-,-,plaque count,HEF,0.56 µg/mL
O=c1[nH]c(=S)n([C@@H]2O[C@H](CO)[C@@H](O)[C@@H]2O)cc1Br,KOS,-,plaque count,RPMI8226,3.5 µM
COC(=O)OP(=O)(CO[C@H](CO)Cn1cnc(N)nc1=O)OC(=O)OC,KOS,-,cytopathic effect,-,0.076 µg/mL
CC(=O)OC[C@]1(C)CCC[C@@]2(C)[C@H]1[C@H](O)CC1C[C@H](OC(C)=O)[C@]3(C)CC[C@]12C3,F,-,plaque count,HeLa,59.1 µM